{"source": "paper PMC11268423", "about": "(Science Advances, 2024)", "key": {"[1]": {"system": "P-gp [P-glycoprotein; MDR1 (multidrug resistance 1)]", "conditions": "cited from earlier work"}, "[2]": {"system": "A173V+T304I mutant virus", "assay": "Viral passaging in the presence of nirmatrelvir (scheme 4) in VeroE6-Pgp-KO cells", "conditions": "nirmatrelvir 7.3 μM (50×EC50), scheme 4, two passages"}}, "data": [{"smiles": "CC(C)(C)[C@H](NC(=O)C(F)(F)F)C(=O)N1C[C@H]2[C@@H]([C@H]1C(=O)N[C@H](C#N)C[C@@H]1CCNC1=O)C2(C)C", "note": "[Nirmatrelvir]", "values": [{"measurement": "P-gp efflux pump substrate", "setting": "[1]", "result": "substrate of the efflux pump P-gp"}, {"measurement": "virus induced CPE or viral RNA", "setting": "[2]", "result": "no virus induced CPE or viral RNA could be detected"}]}]}
